Reference: publication PMC4917206, “Chemical Modification of Influenza CD8+ T-Cell Epitopes Enhances Their Immunogenicity Regardless of Immunodominance” (PLoS ONE, 2016)

Key:
HLA-A*0201 = biological target: T1, HLA-A*0201 (Homo sapiens, UniProt P04439, D140Y/D185E/D98H/E176V/E277Q/G131W/G231S/I119V/I121R/I166T/I218V/L300P/L318F/N151K/N90K/P208A/P217A/Q86G/Q94H/R138H/R169H/T345S); format: binding
T1 construct: Soluble MHC was dissolved in PBS containing 0.5 mg/ml bovine γ-globulin; made in house

[1] = tested on: splenocytes of WT-vaccinated HLA-A2 tg mice; format: cell-based, mouse; design: key to response compared with WT peptide control, mouse splenocytes: *: Lower response than WT peptide
[2] = tested on: […]-specific T cell clone; format: cell-based

Row | Substance | FP binding score, percentage inhibition of tracer peptide binding, 4h (HLA-A*0201) | FP binding score, percentage inhibition of tracer peptide binding, 24h (HLA-A*0201) | rank by T cell activation, mouse splenocytes [1] | response compared with WT peptide control, mouse splenocytes [1] | T cell clone: percentage of IFN-γ producing T cells, Average [2]
1 | [4-PYRA]ILGFVFTL [G15] | 93% | 93% |  |  | 
2 | fILGFVFTL [G24] | 86% | 81% |  |  | 
3 | GILGFVFT[2-AOC] [G22] | 79% | 77% | Upper 3 | G22 ^* | 23.3%
4 | [3-pyra]ILGFVFTL [G4] | 92% | 92% |  |  | 
5 | [4-pyra]ILGFVFTL [G10] | 90% | 91% |  |  | 
6 | [am-phg]ILGFVFTL [G1] | 97% | 98% |  |  | 
7 | [3-PYRA]ILGFVFTL [G8] | 94% | 93% |  |  | 
8 | yILGFVFTL [G9] | 94% | 90% |  |  | 
